According to patent publication US20060229433A1, “Modified antiviral peptides with increased activity and cell membrane affinity” (priority 2003, published 2006):
pIC50: −log10 of the molar value. “And” between values parts separate entries of the source, which are not always exact repeats. Equal entries are not always repeated.

How the values were obtained:
[1] = system: HIV-1 NDK; test: HIV-1 infection of C8166 cells (syncytia formation, p24 ELISA) with HIV-1 NDK; type: cell-based; parameters: key to syncitia formed, Day 4 / syncitia formed, Day 5 / syncitia formed, Day 6 / syncitia formed, Day 7: ++, +, (+), (+)− and − represent decreasing numbers of syncitia formed; ++, +, (+), (+)− and − represent decreasing numbers of syncitia formed; ++, +, (+), (+)− and − represent decreasing numbers of syncitia formed; ++, +, (+), (+)− and − represent decreasing numbers of syncitia formed; ++, +, (+), (+)− and − represent decreasing numbers of syncitia formed; settings: for P 24: P 24 after Day 7
Method: (§1) HIV-1 NL 4-3 isolate (Adachi et al., 1986; Barré-Sinoussi et al., 1983) and highly cytopathic Zairian HIV-1 NDK isolate (Ellrodt et al., 1984) was propagated in permissive CEM cells (Nara et al., 1987). Uninfected CEM and C8166 (Salahuddin et al., 1983) were maintained in RPMI 1640 (R10) with ultraglutamine (cambrex, Vervier, Belgium), penicillin (100 U/ml), streptomycin (100 μg/ml), and 10% heat-inactivated fetal calf serum (Cambrex).
(§2) Samples of 3×10^5/100 μL C8166 cells were preincubated in 96-well microtiter plates in culture medium containing various concentrations of peptide. After a 1 h treatment at 37° C., 100 μl of diluted viral solution of HIV-1 was added. The cells were exposed to the virus for 1 h at 37° C. at a multiplicity of infection of 1000 TCID50 per ml. The cells were washed three times and cultured at 3×10^5/ml of R10 with the treatment in 24-well plates incubated at 37° C. C8166 culture medium was replaced at Day-4 post-infection. The treatment was permanent before virus adsorption, during virus adsorption and after infection. Assays on C8166 cells have been performed at least twice and in duplicate. Toxicity was evaluated by daily cell count and trypan-blue exclusion assay. Infection of C8166 T-cells with HIV-1 was assessed by virus-induced cytopathic effects (syncytia formation) and by quantification of cell free p24 viral protein in the culture supernatants. Measurements of HIV-1 p24^gag concentration in the culture supernatants were achieved by ELISA (ALLIANCE® HIV-1 p24 kit, Perkin Elmer, life sciences, USA).

[2] = system: HIV-1 NL 4-3; test: HIV-1 infection of C8166 cells (syncytia formation, p24 ELISA) with HIV-1 NL 4-3; type: cell-based; parameters: key to Day 4 syncitia formed / Day 5 syncitia formed / Day 6 syncitia formed / Day 7 syncitia formed / syncitia formed, Day 4 / syncitia formed, Day 5 / syncitia formed, Day 6 / syncitia formed, Day 7: ++, +, (+), (+)− and − represent decreasing numbers of syncitia formed; ++, +, (+), (+)− and − represent decreasing numbers of syncitia formed; ++, +, (+), (+)− and − represent decreasing numbers of syncitia formed; ++, +, (+), (+)− and − represent decreasing numbers of syncitia formed; ++, +, (+), (+)− and − represent decreasing numbers of syncitia formed; settings: for Day 4 syncitia formed / Day 5 syncitia formed / Day 6 syncitia formed / Day 7 syncitia formed: Table 6; for syncitia formed, Day 4 / syncitia formed, Day 5 / syncitia formed, Day 6 / syncitia formed, Day 7 / pIC50: C8166 cells; for pIC50: HIV-1 subtype B NL 4-3
Method: as §1, §2

C[C@H](NC(=O)[C@H](CCCNC(=N)N)NC(=O)CNC(=O)[C@@H]1CCCN1C(=O)CN)C(=O)O [GPGRA, reference compound]
syncitia formed, Day 4 ([1]; 0.005 μM): (+)
syncitia formed, Day 5 ([1]; 0.005 μM): +
syncitia formed, Day 6 ([1]; 0.005 μM): ++
syncitia formed, Day 7 ([1]; 0.005 μM): ++
syncitia formed, Day 4 ([1]; 0.01 μM): (+)
syncitia formed, Day 5 ([1]; 0.01 μM): +
syncitia formed, Day 6 ([1]; 0.01 μM): ++
syncitia formed, Day 7 ([1]; 0.01 μM): ++
syncitia formed, Day 4 ([1]; 0.05 μM): −
syncitia formed, Day 5 ([1]; 0.05 μM): (+)
syncitia formed, Day 6 ([1]; 0.05 μM): ++
syncitia formed, Day 7 ([1]; 0.05 μM): ++
P 24 ([1]; 0.05 μM): 13010 pg/mL and 10910 pg/mL
syncitia formed, Day 4 ([1]; 0.1 μM): −
syncitia formed, Day 5 ([1]; 0.1 μM): (+)
syncitia formed, Day 6 ([1]; 0.1 μM): ++
syncitia formed, Day 7 ([1]; 0.1 μM): ++
P 24 ([1]; 0.1 μM): 13840 pg/mL and 9310 pg/mL
syncitia formed, Day 4 ([1]; 0.5 μM): −
syncitia formed, Day 5 ([1]; 0.5 μM): −
syncitia formed, Day 6 ([1]; 0.5 μM): ++
syncitia formed, Day 7 ([1]; 0.5 μM): ++
syncitia formed, Day 4 ([1]; 1 μM): −
syncitia formed, Day 5 ([1]; 1 μM): −
syncitia formed, Day 6 ([1]; 1 μM): +
syncitia formed, Day 7 ([1]; 1 μM): ++
P 24 ([1]; 1 μM): 3070 pg/mL and 2403 pg/mL
syncitia formed, Day 4 ([1]; 5 μM): −
syncitia formed, Day 5 ([1]; 5 μM): −
syncitia formed, Day 6 ([1]; 5 μM): −
syncitia formed, Day 7 ([1]; 5 μM): +
P 24 ([1]; 5 μM): 2726 pg/mL and 2070 pg/mL
pIC50 ([1]; HIV 1 NDK, Table 10): 7.40
IC100 ([1]; HIV 1 NDK, Table 10): >5 µM
Day 4 syncitia formed ([2]; 0.005 μM): −
Day 5 syncitia formed ([2]; 0.005 μM): +
Day 6 syncitia formed ([2]; 0.005 μM): ++
syncitia formed, Day 4 ([2]; 0.01 μM): −
syncitia formed, Day 5 ([2]; 0.01 μM): +
syncitia formed, Day 6 ([2]; 0.01 μM): ++
Day 4 syncitia formed ([2]; 0.01 μM): −
Day 5 syncitia formed ([2]; 0.01 μM): +
Day 6 syncitia formed ([2]; 0.01 μM): ++
syncitia formed, Day 4 ([2]; 0.05 μM): −
syncitia formed, Day 5 ([2]; 0.05 μM): (+)
syncitia formed, Day 6 ([2]; 0.05 μM): +
syncitia formed, Day 7 ([2]; 0.05 μM): ++
Day 4 syncitia formed ([2]; 0.05 μM): −
Day 5 syncitia formed ([2]; 0.05 μM): (+)
Day 6 syncitia formed ([2]; 0.05 μM): +
Day 7 syncitia formed ([2]; 0.05 μM): ++
syncitia formed, Day 4 ([2]; 0.1 μM): −
syncitia formed, Day 5 ([2]; 0.1 μM): (+)
syncitia formed, Day 6 ([2]; 0.1 μM): +
syncitia formed, Day 7 ([2]; 0.1 μM): + and ++
Day 4 syncitia formed ([2]; 0.1 μM): −
Day 5 syncitia formed ([2]; 0.1 μM): (+)
Day 6 syncitia formed ([2]; 0.1 μM): +
Day 7 syncitia formed ([2]; 0.1 μM): +
syncitia formed, Day 4 ([2]; 0.5 μM): −
syncitia formed, Day 5 ([2]; 0.5 μM): −
syncitia formed, Day 6 ([2]; 0.5 μM): −
syncitia formed, Day 7 ([2]; 0.5 μM): +
Day 4 syncitia formed ([2]; 0.5 μM): −
Day 5 syncitia formed ([2]; 0.5 μM): −
Day 6 syncitia formed ([2]; 0.5 μM): −
Day 7 syncitia formed ([2]; 0.5 μM): −
syncitia formed, Day 4 ([2]; 1 μM): −
syncitia formed, Day 5 ([2]; 1 μM): −
syncitia formed, Day 6 ([2]; 1 μM): −
syncitia formed, Day 7 ([2]; 1 μM): (+)
Day 4 syncitia formed ([2]; 1 μM): −
Day 5 syncitia formed ([2]; 1 μM): −
Day 6 syncitia formed ([2]; 1 μM): −
Day 7 syncitia formed ([2]; 1 μM): −
syncitia formed, Day 4 ([2]; 5 μM): −
syncitia formed, Day 5 ([2]; 5 μM): −
syncitia formed, Day 6 ([2]; 5 μM): −
syncitia formed, Day 7 ([2]; 5 μM): (+)
Day 4 syncitia formed ([2]; 5 μM): −
Day 5 syncitia formed ([2]; 5 μM): −
Day 6 syncitia formed ([2]; 5 μM): −
Day 7 syncitia formed ([2]; 5 μM): −
pIC50 ([2]; Table 9, two lines = tested twice, 8 days apart): 7.52 and 7.70

N=C(N)NCCC[C@H](N)C(=O)N[C@@H](CCC(N)=O)C(=O)NCC(=O)N[C@@H](Cc1ccc(O)cc1)C(=O)N[C@@H](CO)C(=O)O [RS monomer, RQGYS, reference compound]
pIC50 ([2]; Table 3): 6.70
